{"source": "paper PMC9907720", "about": "(Antiviral research, 2022)", "system": "TB40/E^UL32-EGFP", "experiment": "TB40/E^UL32-EGFP virus particle imaging", "details": "after 2hpi, compared to no treatment", "data": [{"substance": "heparin [reference compound]", "values": [{"measurement": "TB40/E^UL32-EGFP particles in cells", "value": "displayed limited the virus particles in the cells"}]}]}
